Anti-infective test results gathered from many reports (values: NIAID ChemDB through PubChem).

Shared fields: target-level tests; species: HIV-1; target: Integrase; measure: IC50

a–b is a range or a potency band. ICn: concentration for n% inhibition. An empty or dashed field is not shown. Conditions beyond the fields shown may differ between rows.

| smiles | mutations | read by | result |
|---|---|---|---|
| CCN(CC)CCCC(C)Nc1ccnc2cc(OC)ccc12 | - | strand transfer | >300 µM |
| O=C(O)C(=O)/C=C(\O)c1cn(Cc2ccc(F)cc2)c2ccc(OCc3ccc(F)cc3)cc2c1=O | - | strand transfer | 0.05 µM |
| CCN(CC)CCCC(C)Nc1cncc2cc(Cl)ccc12 | - | strand transfer | >300 µM |
| O=S(=O)(Nc1ccccc1C(F)(F)F)c1cccc2cnccc12 | - | 3′ processing | 1000 µM |
| O=C1/C(=C/c2ccc(Cl)c(Cl)c2)CSC/C1=C\c1ccc(Cl)c(Cl)c1 | - | strand transfer | >100 µM |
| Brc1ccc(CSc2nc3ccccc3s2)cc1 | - | 3′ processing | >1000 µM |
| CCOC(=O)CC1C/C(=C\c2cc(O)c(O)c(O)c2)C(=O)/C(=C/c2cc(O)c(O)c(O)c2)C1 | - | strand transfer | 1.9 µM |
| c1cnc2c(CSc3nc4ccccc4s3)cccc2c1 | - | strand transfer | >1000 µM |
| CC(=O)Nc1cn2ccn(CCCc3c(F)cccc3Cl)c(=O)c2c(O)c1=O | - | ELISA | 0.01–0.1 µM |
| O=C(C1=NS(=O)(=O)c2ccc(Cl)cc2S1)c1ccc(Cl)cc1 | INTG-C65S | 3′ processing | 100 µM |
| O=C(NCCCC(NC(=O)c1cc(O)c(O)c(O)c1)C(=O)O)c1cc(O)c(O)c(O)c1 | - | 3′ processing | 0.39 µM |
| Cc1ncc(COP(=O)(O)O)c(C=O)c1O | - | strand transfer | 18 µM |
| O=C(O)/C(O)=C/C(=O)N(Cc1ccc2ccccc2c1)c1ccc(Cl)cc1 | - | strand transfer | <70 µM |
| CCN(CC)CCCC(C)Nc1ccnc2cc(C(F)(F)F)ccc12 | - | strand transfer | >300 µM |
| O=C(O)CC1C/C(=C\c2ccc(O)c(O)c2)C(=O)/C(=C/c2ccc(O)c(O)c2)C1 | - | 3′ processing | 0.7 µM |
| O=C(/C=C(\O)C(=O)O)NCc1ccc(C(F)(F)F)cc1 | - | strand transfer | <70 µM |
| CN1CCn2c(nc(C(=O)NCc3ccc(F)cc3)c(O)c2=O)C1(C)C | - | ELISA | <10 µM |
| Cc1cc(=O)c(O)c2n1CCN(Cc1ccc(Cl)c(Cl)c1)C2=O | - | ELISA | 0.01–0.1 µM |
| Cn1cc(C(=O)O)c(=O)c2cc(N)c(N3CCN(c4ccccn4)CC3)cc21 | - | - | 60 µM |
| CN1C/C(=C\c2ccc(O)c(O)c2)C(=O)/C(=C/c2ccc(O)c(O)c2)C1 | - | 3′ processing | 0.5 µM |
| O=C(NC(CNC(=O)c1ccc(O)c(O)c1O)C(=O)O)c1cc(O)c(O)c(O)c1 | - | 3′ processing | 0.38 µM |
| O=C(O)/C(O)=C/C(=O)N(CCCc1ccc(-c2ccccc2)cc1)Cc1ccc(F)cc1 | - | strand transfer | <70 µM |
| Cc1cc2c(cc1Cl)SC(C(=O)c1ccc(Br)cc1)=NS2(=O)=O | INTG-C65S | strand transfer | 65 µM |
| O=C(/C=C/c1ccc(O)c2c1[C@H](C(=O)O[C@H](Cc1ccc(O)c(O)c1)C(=O)O)[C@@H](c1ccc(O)c(O)c1)O2)O[C@H](Cc1ccc(O)c(O)c1)C(=O)O | - | 3′ processing | 0.45 µM |
| O=C1C(=O)N(Cc2cccc3cccnc23)c2ccccc21 | - | 3′ processing | 1000 µM |
| CCN(CC)CCCC(C)Nc1cncc2cc(OC)ccc12 | - | 3′ processing | >300 µM |
| O=C(/C=C(\O)C(=O)O)NCc1ccc([N+](=O)[O-])cc1 | - | strand transfer | <70 µM |
| CN(C)C(=O)C(=O)N(C)CC1c2nc(C(=O)NCc3ccc(F)cc3)c(O)c(=O)n2CCN1C | - | ELISA | <10 µM |
| Nc1ccn([C@@H]2CC[C@H](COP(=O)(O)O)O2)c(=O)n1 | - | strand transfer | 45 µM |
| CN1CCc2c(c(O)c3n2CCN(Cc2ccc(F)cc2)C3=O)C1=O | - | strand transfer | <1 µM |
| CCOC(=O)C1C/C(=C\c2cc(O)c(O)c(O)c2)C(=O)/C(=C/c2cc(O)c(O)c(O)c2)C1 | - | 3′ processing | 0.2 µM |
| CC1(C)c2nc(C(=O)NCc3ccc(F)cc3)c(O)c(=O)n2CCN1Cc1ccccn1 | - | ELISA | <10 µM |
| O=C1c2c(O)c(=O)ncn2CCN1Cc1cccc(Cl)c1 | - | ELISA | 0.01–0.1 µM |
| O=C1/C(=C/c2cc(O)c(O)c(O)c2)CC(C(=O)O)C/C1=C\c1cc(O)c(O)c(O)c1 | - | 3′ processing | 0.2 µM |
| CC(C)(C)C(=O)OCCNC(=O)c1cn2ccn(Cc3cccc(Cl)c3)c(=O)c2c(O)c1=O | - | ELISA | 0.01–0.1 µM |
| O=C(NCCCC[C@H](NC(=O)c1cc(O)c(O)c(O)c1)C(=O)O)c1cc(O)c(O)c(O)c1 | - | 3′ processing | 2.25 µM |
| COC(=O)Cc1cn2ccn(Cc3cccc(Cl)c3)c(=O)c2c(O)c1=O | - | ELISA | 0.01–0.1 µM |
| COc1ccc(CN(C)C(=O)/C=C(\O)C(=O)O)cc1 | - | strand transfer | <70 µM |
| Cc1cc(Cl)cc2c1S(=O)(=O)N=C(C(=O)c1ccc3ccccc3c1)S2 | INTG-C65S | 3′ processing | 20 µM |
| COC(=O)C(CCCNC(=O)/C=C/c1cc(O)c(O)c(O)c1)NC(=O)/C=C/c1cc(O)c(O)c(O)c1 | - | 3′ processing | 0.74 µM |
| O=c1c(-c2ccc(Cl)cc2)cn2ccn(Cc3cccc(Cl)c3)c(=O)c2c1O | - | ELISA | 0.01–0.1 µM |
| O=C(C1=NS(=O)(=O)c2ccc(Cl)cc2S1)c1ccc2ccccc2c1 | INTG-C65S | strand transfer | 35 µM |
| CC(C)(C)C(=O)c1cn2ccn(Cc3cccc(Cl)c3)c(=O)c2c(O)c1=O | - | ELISA | <0.01 µM |
| COc1ccc(CN(Cc2ccc(F)cc2)C(=O)/C=C(\O)C(=O)O)c(OC)c1 | - | strand transfer | <70 µM |
| CC(C)(C)C(=O)c1cn2c(c(O)c1=O)C(=O)N(Cc1ccc(F)c(Cl)c1)CC2 | - | ELISA | <0.01 µM |
| CCN1C/C(=C\c2cc(O)c(O)c(O)c2)C(=O)/C(=C/c2cc(O)c(O)c(O)c2)C1 | - | disintegration | 0.9 µM |